A mixed list of measured activities; the numbers were collected in NIAID ChemDB.

All rows: tests in culture; organism: Mycobacterium avium complex

Blank or dashed fields: not listed here. ECn is the concentration giving n% inhibition of infection, replication or growth. Neighbouring rows are from separate reports. A number after MIC or MFC names an inhibition level or a share of isolates. Two numbers with a dash give a range or band.

CO[C@H]1/C=C/O[C@@]2(C)Oc3c(C)c(O)c4c(O)c(c5c(c4c3C2=O)NC2(CCN(CC(C)C)CC2)N=5)=NC(=O)/C(C)=C\C=C\[C@H](C)[C@H](O)[C@@H](C)[C@@H](O)[C@@H](C)[C@H](OC(C)=O)[C@@H]1C ; strain: 1317-2 ; measure: MIC ; result: 0.25 µg/mL
CC[C@H]1OC(=O)[C@H](C)[C@@H](OC2C[C@@](C)(OC)[C@@H](O)[C@H](C)O2)[C@H](C)[C@@H](O[C@@H]2O[C@H](C)C[C@H](N(C)C)[C@H]2O)C(C)(O)C[C@@H](C)/C(=N\OCCc2cccs2)[C@H](C)[C@@H](O)[C@]1(C)O ; strain: 20039 (clarithromycin-susceptible) ; measure: MIC ; result: 1.56 µg/mL
CCCCCC/C=C/c1ccc2nc3n(c(=O)c2c1)-c1ccc(Cl)cc1C3=O ; strain: 19075 ; measure: MIC ; result: 1 µg/mL
CCN=c1cc2n(-c3ccccc3)c3ccc(Cl)cc3nc-2cc1Nc1ccccc1 ; measure: MBC ; conditions: inside macrophages ; result: >4 µg/mL
N[C@@H]1CONC1=O ; read by: agar ; strain: 97 strains ; measure: EC50 ; result: >30 µg/mL
CC(C)(C)OC(=O)N1CCN(c2cc3nc4n(c(=O)c3cc2F)-c2ccc(I)cc2C4=O)CC1 ; strain: 19075 ; measure: MIC ; result: 25 µg/mL
COCc1ccnc2c(NC(C)CCCN)cc(OC)c(Cc3cccc(C(F)(F)F)c3)c12 ; strain: 5 clinical isolates ; measure: MIC ; result: >16 µg/mL
CO[C@H]1/C=C/O[C@@]2(C)Oc3c(C)c(O)c4c(=O)c(c5oc6cc(N7CCN(CC(C)C)CC7)cc(=O)c6nc5c4c3=C2O)NC(=O)/C(C)=C\C=C\[C@H](C)[C@H](O)[C@@H](C)[C@@H](O)[C@@H](C)[C@H](OC(C)=O)[C@@H]1C ; strain: N-444 ; measure: MIC ; result: 0.03 µg/mL
N[C@@H]1CN(c2c(F)cc3c(=O)c(C(=O)O)cn([C@@H]4C[C@@H]4F)c3c2Cl)CC12CC2 ; strain: 109 ; measure: MIC ; result: 8–16 µg/mL
CCCO/N=C1\[C@H](C)CC(C)(O)[C@H](O[C@@H]2O[C@H](C)C[C@H](N(C)C)[C@H]2O)[C@@H](C)[C@H](OC2C[C@@](C)(OC)[C@@H](O)[C@H](C)O2)[C@@H](C)C(=O)O[C@H](CC)[C@@](C)(O)[C@H](O)[C@H]1C ; strain: 20092 ; measure: MIC ; result: >50 µg/mL
CC[C@H]1OC(=O)[C@H](C)[C@@H](OC(C)=O)[C@H](C)[C@@H](O[C@@H]2O[C@H](C)C[C@H](N(C)C)[C@H]2O)C(C)(O)C[C@@H](C)/C(=N\OCCCOc2ccccc2)[C@H](C)[C@@H](O)[C@]1(C)O ; strain: 20092 (clarithromycin-resistant) ; measure: MIC ; result: >50 µg/mL
CO[C@H]1/C=C/O[C@@]2(C)Oc3c(C)c(O)c4c(=O)c(c5oc6cc(N(C)CCN(C)C)cc(=O)c6nc5c4c3=C2O)NC(=O)/C(C)=C\C=C\[C@H](C)[C@H](O)[C@@H](C)[C@@H](O)[C@@H](C)[C@H](OC(C)=O)[C@@H]1C ; strain: 31F093T ; measure: MIC ; result: 1.25 µg/mL
CC[C@H]1OC(=O)[C@H](C)[C@@H](OC2C[C@@](C)(OC)[C@@H](O)[C@H](C)O2)[C@H](C)[C@@H](O[C@@H]2O[C@H](C)C[C@H](N(C)C)[C@H]2O)C(C)(O)C[C@@H](C)/C(=N\OCC2CCCCC2)[C@H](C)[C@@H](O)[C@]1(C)O ; strain: 20096 ; measure: MIC ; result: >50 µg/mL
CCc1cc(C(N)=S)ccn1 ; read by: agar ; strain: 56 strains ; measure: EC50 ; result: <5 µg/mL
CC[C@H]1OC(=O)[C@H](C)[C@@H](OC2C[C@@](C)(OC)[C@@H](O)[C@H](C)O2)[C@H](C)[C@@H](O[C@@H]2O[C@H](C)C[C@H](N(C)C)[C@H]2O)C(C)(O)C[C@@H](C)/C(=N\OCCCc2ccccc2)[C@H](C)[C@@H](O)[C@]1(C)O ; strain: 20092 ; measure: MIC ; result: 12.5 µg/mL
C[C@@H]1CN(c2c(F)c(N)c3c(=O)c(C(=O)O)cn(C4CC4)c3c2F)C[C@H](C)N1 ; strain: 20 strains ; measure: MIC90 ; result: 0.5 µg/mL
O=C1c2cc(I)ccc2-n2c1nc1c(I)cc(I)cc1c2=O ; strain: 19075 ; measure: MIC ; result: 5 µg/mL
COc1ccc(C(F)(F)F)cc1NCc1cnc2nc(N)nc(N)c2c1C ; strain: NJ-168 serovar 4/6 ; measure: MIC ; result: ≤0.128 µg/mL
CC1(C)CC(N=c2cc3n(-c4ccc(Cl)c(Cl)c4)c4ccccc4nc-3cc2Nc2ccc(Cl)c(Cl)c2)CC(C)(C)N1 ; measure: MBC ; conditions: inside macrophages ; result: 4 µg/mL
CC[C@H]1OC(=O)[C@H](C)[C@@H](OC2C[C@@](C)(OC)[C@@H](O)[C@H](C)O2)[C@H](C)[C@@H](O[C@@H]2O[C@H](C)C[C@H](N(C)C)[C@H]2O)C(C)(O)C[C@@H](C)/C(=N\OCCc2cccs2)[C@H](C)[C@@H](O)[C@]1(C)O ; strain: 20039 ; measure: MIC ; result: 1.56 µg/mL
CO[C@H]1/C=C/O[C@@]2(C)Oc3c(C)c(O)c4c(=O)c(c5oc6cc(N7CCN(CC=C(C)C)CC7)cc(=O)c6nc5c4c3=C2O)NC(=O)/C(C)=C\C=C\[C@H](C)[C@H](O)[C@@H](C)[C@@H](O)[C@@H](C)[C@H](OC(C)=O)[C@@H]1C ; strain: 31F093T ; measure: MIC ; result: 0.035 µg/mL
O=C1c2cc(Cl)ccc2-n2c1nc1cc(F)ccc1c2=O ; strain: 19075 ; measure: MIC ; result: 0.06 µg/mL
CC[C@H]1OC(=O)[C@H](C)[C@@H](O[C@H]2C[C@@](C)(OC)[C@@H](O)[C@H](C)O2)[C@H](C)[C@@H](O[C@@H]2O[C@H](C)C[C@H](N(C)C)[C@H]2O)[C@](C)(OC)C[C@@H](C)C(=O)[C@H](C)[C@@H](O)[C@]1(C)O ; strain: Isolate 90-0779 ; measure: MIC ; result: 3 µg/mL
CC[C@H]1OC(=O)[C@H](C)[C@@H](O[C@H]2C[C@@](C)(OC)[C@@H](OC(C)=O)[C@H](C)O2)[C@H](C)[C@@H](O[C@@H]2O[C@H](C)C[C@H](N(C)C)[C@H]2OC(=O)NNCc2cccnc2)C(C)(O)C[C@@H](C)/C(=N\OCCCC2CCCCC2)[C@H](C)[C@@H](O)[C@]1(C)O ; strain: 20039 (clarithromycin-susceptible) ; measure: MIC ; result: 1.56 µg/mL
O=C1c2cc(Cl)ccc2-n2c1nc1ncccc1c2=O ; strain: 101 ; measure: MIC ; result: 5 µg/mL
CCCCCCCN(CCCCCCC)CC(O)c1cc2ccccc2c2cc(Br)ccc12 ; strain: 5 clinical isolates ; measure: MIC ; result: >32 µg/mL
CC[C@H]1OC(=O)[C@H](C)[C@@H](O[C@H]2C[C@@](C)(OC)[C@@H](O)[C@H](C)O2)[C@H](C)[C@@H](O[C@@H]2O[C@H](C)C[C@H](N(C)C)[C@H]2O)[C@](C)(O)C[C@@H](C)/C(=N\OC)[C@H](C)[C@@H](O)[C@]1(C)O ; strain: 20039 ; measure: MIC ; result: 3.13 µg/mL
C=C(C)CC[C@H]1CN(c2ccn(N3CCOCC3)c2)C(=O)O1 ; measure: MIC90 ; result: >100 µM
CC[C@H]1OC(=O)[C@H](C)[C@@H](OC2C[C@@](C)(OC)[C@@H](O)[C@H](C)O2)[C@H](C)[C@@H](O[C@@H]2O[C@H](C)C[C@H](N(C)C)[C@H]2O)C(C)(O)C[C@@H](C)/C(=N\OCCC2CCCCC2)[C@H](C)[C@@H](O)[C@]1(C)O ; strain: 20039 ; measure: MIC ; result: 3.13 µg/mL
O[C@@H](c1cc2ccc(C(F)(F)F)cc2c2cc(C(F)(F)F)ccc12)[C@@H]1CCCCN1 ; strain: 5 clinical isolates ; measure: MIC ; result: 4 µg/mL
COc1ccc(C)c(NCc2cnc3nc(N)nc(N)c3c2C)c1 ; strain: NJ-168 serovar 1 ; measure: MIC ; result: ≤0.128 µg/mL
O[C@@H](c1cc2ccc(C(F)(F)F)cc2c2cc(C(F)(F)F)ccc12)[C@H]1CCCCN1 ; strain: 24 clinical isolates ; measure: MIC90 ; result: 4 µg/mL
CCCCO/N=C1\[C@H](C)CC(C)(O)[C@H](O[C@@H]2O[C@H](C)C[C@H](N(C)C)[C@H]2O)[C@@H](C)[C@H](OC2C[C@@](C)(OC)[C@@H](O)[C@H](C)O2)[C@@H](C)C(=O)O[C@H](CC)[C@@](C)(O)[C@H](O)[C@H]1C ; strain: 20096 ; measure: MIC ; result: >50 µg/mL
CC[C@H]1OC(=O)[C@H](C)[C@@H](O[C@H]2C[C@@](C)(OC)[C@@H](O)[C@H](C)O2)[C@H](C)[C@@H](O[C@@H]2O[C@H](C)C[C@H](N(C)C)[C@H]2O)[C@](C)(O)C[C@@H](C)CN(C)[C@H](C)[C@@H](O)[C@]1(C)O ; strain: SK095 ; measure: MIC ; result: 32 µg/mL
CO[C@H]1/C=C/O[C@@]2(C)Oc3c(C)c(=O)c4c(O)c(c5oc6cccc(O[Si](C)(C)C(C)(C)C)c6nc5c4c3C2=O)NC(=O)/C(C)=C\C=C\[C@H](C)[C@H](O)[C@@H](C)[C@@H](O)[C@@H](C)[C@H](OC(C)=O)[C@@H]1C ; strain: 31F093T ; measure: MIC ; result: 5 µg/mL
Cc1cccc2c(=O)n3c(nc12)C(=O)c1ccccc1-3 ; strain: 19075 ; measure: MIC ; result: 5 µg/mL
CCCCCCNNC(=O)O[C@H]1[C@H](O[C@@H]2[C@@H](C)[C@H](O[C@H]3C[C@@](C)(OC)[C@@H](OC(C)=O)[C@H](C)O3)[C@@H](C)C(=O)O[C@H](CC)[C@@](C)(O)[C@H](O)[C@@H](C)/C(=N/OCCCC3CCCCC3)[C@H](C)CC2(C)O)O[C@H](C)C[C@@H]1N(C)C ; strain: 20092 (clarithromycin-resistant) ; measure: MIC ; result: 1.56 µg/mL
CO[C@H]1/C=C/O[C@@]2(C)Oc3c(C)c(O)c4c(=O)c(c5oc6cc(N7CCN(CC(C)C)CC7)cc(=O)c6nc5c4c3=C2O)NC(=O)/C(C)=C\C=C\[C@H](C)[C@H](O)[C@@H](C)[C@@H](O)[C@@H](C)[C@H](OC(C)=O)[C@@H]1C ; strain: N-444 ; measure: MBC ; result: 1 µg/mL
COc1cc(OC)cc(N(C)Cc2cnc3nc(N)nc(N)c3c2C)c1 ; strain: NJ-168 serovar 4 ; measure: MIC ; result: ≤0.128 µg/mL
O[C@H](c1cc2ccc(C(F)(F)F)cc2c2cc(C(F)(F)F)ccc12)[C@H]1CCCCN1 ; strain: 5 clinical isolates ; measure: MIC ; result: 4–8 µg/mL
CC[C@H]1OC(=O)[C@H](C)[C@@H](OC2C[C@@](C)(OC)[C@@H](O)[C@H](C)O2)[C@H](C)[C@@H](O[C@@H]2O[C@H](C)C[C@H](N(C)C)[C@H]2O)C(C)(OC)C[C@@H](C)/C(=N\OCCCOc2ccccc2)[C@H](C)[C@@H](O)[C@]1(C)O ; strain: 20039 ; measure: MIC ; result: 1.56 µg/mL
CCN1CCN(c2cc(=O)c3nc4c(oc3c2)c2c(=O)c3c(O)c(C)c5c(c34)=C(O)[C@@](C)(O/C=C/[C@H](OC)[C@@H](C)[C@@H](OC(C)=O)[C@H](C)[C@H](O)[C@H](C)[C@@H](O)[C@@H](C)/C=C/C=C(/C)C(=O)N2)O5)CC1 ; strain: 31F093T ; measure: MIC ; result: 0.07 µg/mL

For reference, 4 entries again:

structure,read by,strain,measure,conditions,result
COc1ccc(C(F)(F)F)cc1NCc1cnc2nc(N)nc(N)c2c1C,-,NJ-168 serovar 4/6,MIC,-,≤0.128 µg/mL
O=C1c2cc(I)ccc2-n2c1nc1c(I)cc(I)cc1c2=O,-,19075,MIC,-,5 µg/mL
CC[C@H]1OC(=O)[C@H](C)[C@@H](OC2C[C@@](C)(OC)[C@@H](O)[C@H](C)O2)[C@H](C)[C@@H](O[C@@H]2O[C@H](C)C[C@H](N(C)C)[C@H]2O)C(C)(O)C[C@@H](C)/C(=N\OCCC2CCCCC2)[C@H](C)[C@@H](O)[C@]1(C)O,-,20039,MIC,-,3.13 µg/mL
CCCCCCCN(CCCCCCC)CC(O)c1cc2ccccc2c2cc(Br)ccc12,-,5 clinical isolates,MIC,-,>32 µg/mL